PubChem BioAssay AID504761 | Drosophila RNAi Screening Center | 2011
The screen tested about 22,000 reagents; shown is a random part of those that have a named target and a result. In the full data, 116 (0.52%) are marked active. 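Calls depend on retest data that are not deposited; infection was ranked per plate without normalising between plates; the unit of the infection score is not given.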 Raw values vary from plate to plate and are shown uncorrected. Unmarked entries are inactive. Reagents against one gene are numbered here. Not stated in the record: the amount of reagent, the time to read-out.

Purpose: 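Insect host genes that dengue virus relies on to spread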 (primary screen)
Cells: D.Mel-2 cells from Drosophila
Knock-down reagent: long dsRNA against Drosophila genes
Treatment: infection with dengue virus type 2; dose and infection time not stated
Read-out: 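Cells stained for dengue envelope protein and imaged; percent of infected cells per well on duplicate plates, ranked by infection, with stained nuclei counted for cell number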
Direction: infection score: higher = more virus-infected cells; cell count: higher = more cells in the well
Call rule: 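Very low infection ranking in both replicate wells (chance probability at most 0.065), then a retest showing infection dropped 1.5-fold or more at p below 0.05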
Meaning of the calls: active = confirmed: knock-down lowers infection; inactive = not picked or not confirmed

no.	gene	reagent	infection score, replicate 1	infection score, replicate 2	cell count, replicate 1	cell count, replicate 2
1	awd	1	3.39	4.44	6580	5267
2	GstD8	1	4.57	3.49	6565	6993
3	GstD8	2	1.72	2.44	6320	6117
4	Mcm3	1	4.13	2.15	5738	6147
5	Mcm3	2	17.9	13.8	6175	5558
6	CG13008	1	5.83	4.52	6312	6311
7	CG13008	2	0.94	8.26	6599	6319
8	Alp13	1	4.55	22.3	6600	5455
9	Tom7	1	0.48	0.86	6623	6879
10	Tom7	2		2.77	405	687
11	Ssu72	1	2.98	1.57	6066	6286
12	Ssu72	2	8.74	31.2	6136	5489
13	Cyp12e1	1	13.6	3.91	5955	5217
14	ND-B15	1	22.3	16.8	5515	5533
15	CG12868	1	4.04 (active)	1.42	6404	6604
16	CG12868	2	5.65	13.9	6192	4674
17	CG13029	1	4.7	3.57	5997	6502
18	mIF2	1	2.15	6.13	6453	6133
19	mIF2	2	14.4	11.5	4410	6228
20	Cpn	1	10.9	5.84	6117	6298
21	Cpn	2	1.88	3.92	6179	5944
22	CG13858 (retired record)	1	5.25	3.56	6480	6937
23	CG13858 (retired record)	2	3.12	2.3	6258	6533
24	CG13858 (retired record)	3	1.98	2.42	6816	6990
25	CG13858 (retired record)	4	2.11	3.28	6778	6972
26	Edg84A	1	15.3	3.99	5108	5515
27	CG31099	1	3.06	10.7	6853	6760
28	CG31099	2	2.9	1.24	6789	7104
29	aux	1	15	11.4	4727	5703
30	aux	2	13.7	6.87	3563	6215
31	CG9445	1	13.2		4445	470
32	Hmgs	1	15.8	18.9	4945	5754
33	Hmgs	2	10.9	14.7	5982	3329
34	CG5819	1	25.4	23.9	6031	3556
35	CG5819	2	22.9	8.95	5506	4727
36	Rbf2	1	19.4	16.2	6018	5793
37	Tsp42Ec	1	7.09	10.1	4092	3606
38	Tsp42Ec	2	2.93	8.15	6510	6209
39	CG11583	1	13.5	12.3	4217	4476
40	CG11583	2	6.19	10	5214	4603

Records listed so far whose target name starts with M or m:
gene	reagent	infection score, replicate 1	infection score, replicate 2	cell count, replicate 1	cell count, replicate 2
Mcm3	1	4.13	2.15	5738	6147
Mcm3	2	17.9	13.8	6175	5558
mIF2	1	2.15	6.13	6453	6133
mIF2	2	14.4	11.5	4410	6228
